From ChEMBL document CHEMBL1201862, “PubChem BioAssay data set” (2004) come the findings set out here.

The structures appear in SMILES notation. This is a selection; strong and weak results do not stand in their true shares. Only a part of the results of these assays is listed, not drawn at random.

A short description of the assay: enhancers of HSV replication in host cells, fold increase, host cell viability (AID 1956). It is filed as functional.
On to `Cc1cc(SC(NC(=O)c2ccccc2)C(Cl)(Cl)Cl)nc(C(C)C)n1` (stereo unspecified), for which the Conc @ Max Fold Incr was inactive: 3.12 µM.
